{
  "source": "patent US20260101892A1",
  "about": "“METHOD TO INHIBIT PROLIFERATION OF A PHYTOPATHOGEN ON PLANTS AND COMPOSITIONS USED FOR THIS PURPOSE” (CYSBIO APS, priority 2022, published 2026)",
  "test_system": "downy mildew in grapevine (plasmopara viticola)",
  "test": "Downy mildew in grapevine, controlled environment trial, foliar spray",
  "conditions": "1% zosteric acid formulation, foliar spray 200 L/ha, scored 17 days after application; standard 0.5 grams of copper; FIG. 1A",
  "data": [
    {"molecule": "O=C(O)/C=C/c1ccc(OS(=O)(=O)O)cc1", "note": "[zosteric acid]", "values": [
      {"measurement": "disease control of downy mildew compared with standard fungicide treatment", "result": "control the disease at levels similar to a standard fungicide treatment"}
    ]}
  ]
}
